According to US11203613B2, “Peptidomimetic proteasome inhibitors” (CORNELL UNIVERSITY, priority 2017, dated 2021):
Some entries of the source have several records that differ or are many. The other results are left out here. The source may hold further records. Results that share an entry differ, and nothing given here explains why; some may be repeats, others may stem from another dose, organism or construct than stated.

Protein sequences, listed by entry. Tags and fused reporters are not part of them. Residues count along the entry.
UniProt P9WHT9, 58-291 limits assumed: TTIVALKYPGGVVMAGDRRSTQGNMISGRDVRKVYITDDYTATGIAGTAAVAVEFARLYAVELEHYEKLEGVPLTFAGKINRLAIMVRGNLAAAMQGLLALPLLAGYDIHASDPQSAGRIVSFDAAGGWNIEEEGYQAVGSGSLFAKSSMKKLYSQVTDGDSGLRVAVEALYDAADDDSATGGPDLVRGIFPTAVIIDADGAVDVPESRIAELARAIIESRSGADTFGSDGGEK

Biological target: Mtb20SOG (Mycobacterium tuberculosis, UniProt P9WHT9)
Details: read-out: Mtb20SOG IC50

Structure (SMILES)	IC50
CC[C@H]1CCCCN1C(=O)C[C@H](NC(=O)C1CC1C(C)C)C(=O)N[C@@H](C)c1nc2c(F)cccc2[nH]1 (stereo partly drawn) [CEN-10, N—((S)-4-((S)-2-Ethylpiperidin-1-yl)-1-(((S)-1-(4-fluoro-1H-benzo[d]imidazol-2-yl)ethyl)amino)-1,4-dioxobutan-2-yl)-2-isopropylcyclopropane-1-carboxamide]	11 nM, 23 nM, 21 nM
CC[C@H]1CCCCN1C(=O)C[C@H](NC(=O)CCC(C)(C)C)C(=O)N[C@@H](C)c1nc2ccccc2[nH]1	127 nM and 835 nM
